# Measured values reported in US7425576B2, “Compounds as inhibitors of hepatitis C virus NS3 serine protease” (Schering Corporation, priority 2004, dated 2008).
# Amino acid sequences for entries named in this document (tags omitted). Residues count along the entry.
# UniProt P27958, 1027-1657 limits assumed: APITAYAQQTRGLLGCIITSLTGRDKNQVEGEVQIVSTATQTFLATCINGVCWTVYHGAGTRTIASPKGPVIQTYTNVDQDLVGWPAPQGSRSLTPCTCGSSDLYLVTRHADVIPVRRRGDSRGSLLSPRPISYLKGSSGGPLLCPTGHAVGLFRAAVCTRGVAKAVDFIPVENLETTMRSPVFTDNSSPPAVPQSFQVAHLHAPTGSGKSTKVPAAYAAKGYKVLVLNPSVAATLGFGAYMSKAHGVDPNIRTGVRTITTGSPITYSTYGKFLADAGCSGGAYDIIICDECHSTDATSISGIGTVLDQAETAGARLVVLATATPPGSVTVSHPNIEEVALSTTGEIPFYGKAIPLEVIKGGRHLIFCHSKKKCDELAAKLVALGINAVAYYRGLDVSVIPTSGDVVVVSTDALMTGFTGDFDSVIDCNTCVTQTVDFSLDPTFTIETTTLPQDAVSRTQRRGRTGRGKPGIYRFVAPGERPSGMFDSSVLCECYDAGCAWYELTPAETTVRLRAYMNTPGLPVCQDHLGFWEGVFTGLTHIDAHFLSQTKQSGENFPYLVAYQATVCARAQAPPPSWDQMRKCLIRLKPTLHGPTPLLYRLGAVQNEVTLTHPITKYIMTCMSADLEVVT
# UniProt P27958, 1658-1711 partner limits assumed: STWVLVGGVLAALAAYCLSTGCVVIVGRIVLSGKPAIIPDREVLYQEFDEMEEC
# Structures were worked out from names or drawings and are uncertain.
# Target: Recombinant heterodimeric HCV NS3/NS4A protease (strain 1a) (Hepatitis C virus genotype 1a, UniProt P27958)
# Assay: Spectrophotometric assay for HCV protease inhibitory activity (chromogenic ester substrates)
# Excerpt: The present invention relates to novel HCV protease inhibitors. This utility can be manifested in their ability to inhibit the HCV NS2/NS4a serine protease.
# Assay for HCV Protease Inhibitory Activity:
# Spectrophotometric Assay: Spectrophotometric assay for the HCV serine protease can be performed on the inventive compounds by following the procedure described by R. Zhang et al, Analytical Biochemistry, 270 (1999) 268-275, the disclosure of which is incorporated herein by reference. The assay based on the proteolysis of chromogenic ester substrates is suitable for the continuous monitoring of HCV NS3 protease activity. […]
# Enzyme Preparation: Recombinant heterodimeric HCV NS3/NS4A protease (strain 1a) is prepared by using the procedures published previously (D. L. Sali et al, Biochemistry, 37 (1998) 3392-3401). Protein concentrations are determined by the Biorad dye method using recombinant HCV protease standards previously quantified by amino acid analysis. […]
# Protease Assay: HCV protease assays are performed at 30° C. using a 200 μl reaction mix in a 96-well microtiter plate. […] Proteolytic cleavage of the ester linkage between the Nva and the chromophore is monitored at the appropriate wavelength against a no enzyme blank as a control for non-enzymatic hydrolysis. […] Turnover numbers (kcat) are calculated assuming the enzyme is fully active. […]
smiles,measurement,setting,value
"C#CCCC(NC(=O)[C@@H]1[C@@H]2[C@H](CN1C(=O)[C@@H](NC(=O)N[C@H](COC(=O)NCC(C)C)C(C)(C)C)C1(C)CCCCC1)C2(C)C)C(=O)C(=O)NCCC (single isomer, unassigned)",Ki,"Table 1A, Ki* range class",< 75 nM
same,Ki,"Table 6A, numeric Ki*",27 nM
